Laboratory results: publication PMC6464118 (European journal of medicinal chemistry, 2019)

System: HIV-1 NL4-3 Nanoluc-sec virus
Format: cell-based
Conditions: HIV-1 NL4-3 replication in MT4 cells

## CC(=O)O[C@H]1[C@@H](OC(C)=O)[C@@]2(C)[C@@H]3CC[C@H]4C(C)(C)[C@@H](OC(C)=O)CC[C@@]45C[C@@]35CC[C@@]23CO[C@@]2(C(C)(C)O)CC[C@](C)(O2)[C@@H]13 [Compound 13a, (20S, 24S)-15β, 16β-Diacetoxy-18,24;20,24-diepoxy-9,19-cyclolanostane-25-hydroxy-3β-yl acetate]
  anti-HIV activity in words: equipotent
